From patent US10851401B2, “Broth microdilution method for evaluating and determining minimal inhibitory concentration of antibacterial polypeptides” (priority 2016, dated 2020) come the findings set out here.

A short description of test [1]: MIC assays under different conditions (FIG. 7). To be noted: MHBII, 25% horse serum, 0.5 mM DTT.
For a further test, the system named is S. aureus ATCC 700699. In words: BMD MIC assay of a single strain in CA-MHB, human blood matrices and supplemented broth.
Where [2] appears, read: S. aureus ATCC 70069, CA-MHB supplemented with 0.25% horse serum and 0.5 mM DTT (FIG. 8).

B1: CF-301: bacteriophage lysin polypeptide derived from a Streptococcus suis prophage, amino acid sequence of FIG. 1 / SEQ ID NO: 1; 26 kDa bacteriolytic enzyme (protein, listed as Streptococcus suis)
chain: MTTVNEALNNVRAQVGSGVSVGNGECYALASWYERMISPDATVGLGAGVGWVSGAIGDTISAKNIGSSYNWQANGWTVSTSGPFKAGQIVTLGATPGNPYGHVVIVEAVDGDRLTILEQNYGGKRYPVRNYYSAASYRQQVVHYITPPGTVAQSAPNLAGSRSYRETGTMTVTVDALNVRRAPNTSGEIVAVYKRGESFDYDTVIIDVNGYVWVSYIGGSGKRNYVATGATKDGKRFGNAWGTFK
What is called MIC is the lowest concentration that inhibits growth of the organism. Lower therefore signals a more susceptible organism. Take B1: the MIC in test [1] turned out to be 0.5 µg/mL; in the test on S. aureus ATCC 700699 (CA-MHB with 25% horse serum and 0.5 mM DTT (FIG. 8)), 1 µg/mL; in the test with S. aureus ATCC 700699 (setting [2]), 1 µg/mL. Besides, the “trailing or Eagle effect” value in the test on S. aureus ATCC 700699 (setting [2]) was “no trailing or Eagle effect”. In addition, the “trailing and Eagle effects observed up to” value in the test on S. aureus ATCC 700699 (standard conditions, CA-MHB / MHBII) is listed as “up to 512 μg/ml”.
